From ChEMBL document CHEMBL1150695, “The synthesis of SO-3, a conopeptide with high analgesic activity derived from Conus striatus” (2003) come the findings set out here.

Each structure is given as a SMILES string.

The data set concerns Mus musculus. Briefly: Toxicity in intracerebrally dosed mouse. As to conditions: in vivo, other.

One may read the LD50 as the dose at which mortality reaches 50%. Compound `CC[C@H](C)[C@@H]1NC(=O)[C@H](CCCNC(=N)N)NC(=O)[C@H](CO)NC(=O)[C@@H]2CSSC[C@@H]3NC(=O)[C@H](CO)NC(=O)CNC(=O)[C@H]([C@H](C)O)NC(=O)[C@H](CSSC[C@H](N)C(=O)N[C@@H](CCCCN)C(=O)N[C@@H](C)C(=O)N[C@@H](C)C(=O)NCC(=O)N[C@@H](CCCCN)C(=O)N4CCC[C@H]4C(=O)N2)NC(=O)[C@H](CSSC[C@@H](C(N)=O)NC(=O)[C@H](CCCCN)NC(=O)CNC(=O)[C@H](CO)NC(=O)[C@H](CCCNC(=N)N)NC3=O)NC(=O)[C@H](CC(N)=O)NC(=O)[C@H](Cc2ccc(O)cc2)NC(=O)[C@H](C)NC1=O` had a median lethal dose (LD50) of 13.5 mg/kg.
